This test has as its target NVPro (Norovirus, UniProt Q83883). Kind of test: Inhibition of Norwalk virus protease (NVPro). The settings on record: read-out: Ki value.

By UniProt entry, the sequences of proteins in these tests, tags left out. Residues count along the entry.
UniProt Q83883, 1101-1281 limits assumed: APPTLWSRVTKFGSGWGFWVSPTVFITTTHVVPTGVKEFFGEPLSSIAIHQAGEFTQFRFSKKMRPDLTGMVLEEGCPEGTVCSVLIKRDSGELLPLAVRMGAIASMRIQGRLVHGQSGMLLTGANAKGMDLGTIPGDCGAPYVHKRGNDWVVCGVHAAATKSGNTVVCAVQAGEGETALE

For one compound, Ki results are on record in patent publication US11344600B2.

Each structure is given as a SMILES string. pKi: −log10 of the molar value.

One may read the pKi as the Ki on a negative log10 scale, so that one unit is a factor of ten. In the case of `O=C[C@@H]1CCC(=O)N2CC[C@H](C2)OC/C=C\CC[C@@H](NC(=O)OCc2ccccc2)C(=O)N[C@@H](Cc2ccccc2)C(=O)N1`, the negative logarithm of the Ki (pKi) was 6.30.
